Biological target: purified recombinant Yck2 (Candida albicans, UniProt A0A1D8PKB4)
Experiment: HotSpot kinase assay
Assay type: biochemical, C. albicans
Conditions: read-out: IC50 (IC50-nM); purified recombinant Yck2, 1 uM ATP, one hour incubation with inhibitor, 33P-ATP
Method: IC50s were determined using the in vitro HotSpot kinase assay (purified enzymes, ^33P-ATP, an appropriate substrate and 1 μM ATP). For enzyme inhibition assays, compounds were tested in range of ten concentrations from 10 uM to 0.0005 uM using purified recombinant Yck2. Reaction conditions were 1 uM ATP, one hour incubation with inhibitor, and kinase activity detected using 33-ATP phosphorylation of an appropriately selected peptide substrate.
Yck2 residues 37-345 were PCR amplified from C. albicans genomic DNA and subcloned into the vector pMCSG53, which codes for a N-terminal His6 tag, TEV protease site, followed by the Yck2 protein. E. coli BL21(DE3)-Gold competent cells were transformed with this plasmid and the Yck2 protein was purified using methodology previously described (Stogios et al., ACS Chem. Biol. 13, 1322-1332 (2018)).

Amino acid sequences for entries named in this document (tags omitted). Residues count along the entry.
UniProt A0A1D8PKB4, 37-345 limits assumed: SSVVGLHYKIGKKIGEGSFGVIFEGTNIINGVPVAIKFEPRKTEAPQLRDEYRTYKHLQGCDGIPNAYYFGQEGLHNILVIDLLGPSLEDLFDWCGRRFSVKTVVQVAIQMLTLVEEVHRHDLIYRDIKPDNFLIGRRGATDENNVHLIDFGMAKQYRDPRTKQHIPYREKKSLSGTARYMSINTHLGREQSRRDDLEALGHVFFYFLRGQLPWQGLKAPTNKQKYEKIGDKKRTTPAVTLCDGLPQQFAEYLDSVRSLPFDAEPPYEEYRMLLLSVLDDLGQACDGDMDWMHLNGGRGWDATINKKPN

SMILES: Cn1cc(-c2ccnc3c2C(=O)N(CCC2CCN(CC(O)(Cn4cncn4)c4ccc(F)cc4F)CC2)C3)c(-c2ccc(F)cc2)n1 (stereo not shown)
- IC50: 4.15 nM
